This assay addresses neuronal nAChR subtype α3β2 (Rattus norvegicus, UniProt P04757+P12390). The settings on record: read-out: IC50, inhibition of neuronal nAChR α3β2; rat α3β2 in Xenopus laevis oocytes; -70 mV; 2-s pulses of 100 µM ACh; 3-min preincubation with toxin in static bath; ND96 pH 7.4; Hill fit; mean of at least 3 oocytes.

Sequences of proteins named here, by UniProt entry; tags and fusion partners are left off. Residues count along the entry.
UniProt P04757, 26-499 limits assumed: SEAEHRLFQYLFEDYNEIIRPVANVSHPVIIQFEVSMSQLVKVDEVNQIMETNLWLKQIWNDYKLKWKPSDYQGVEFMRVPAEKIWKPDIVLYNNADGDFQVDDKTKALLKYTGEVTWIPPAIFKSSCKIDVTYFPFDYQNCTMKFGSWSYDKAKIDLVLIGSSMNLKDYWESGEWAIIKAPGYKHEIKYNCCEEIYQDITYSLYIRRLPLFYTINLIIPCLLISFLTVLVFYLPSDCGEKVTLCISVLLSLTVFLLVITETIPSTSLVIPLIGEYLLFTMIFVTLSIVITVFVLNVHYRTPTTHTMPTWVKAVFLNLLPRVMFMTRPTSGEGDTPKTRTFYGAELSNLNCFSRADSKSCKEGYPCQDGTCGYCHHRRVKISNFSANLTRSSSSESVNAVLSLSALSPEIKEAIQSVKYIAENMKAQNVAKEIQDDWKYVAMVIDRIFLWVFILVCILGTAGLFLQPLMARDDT
UniProt P12390, 25-500 limits assumed: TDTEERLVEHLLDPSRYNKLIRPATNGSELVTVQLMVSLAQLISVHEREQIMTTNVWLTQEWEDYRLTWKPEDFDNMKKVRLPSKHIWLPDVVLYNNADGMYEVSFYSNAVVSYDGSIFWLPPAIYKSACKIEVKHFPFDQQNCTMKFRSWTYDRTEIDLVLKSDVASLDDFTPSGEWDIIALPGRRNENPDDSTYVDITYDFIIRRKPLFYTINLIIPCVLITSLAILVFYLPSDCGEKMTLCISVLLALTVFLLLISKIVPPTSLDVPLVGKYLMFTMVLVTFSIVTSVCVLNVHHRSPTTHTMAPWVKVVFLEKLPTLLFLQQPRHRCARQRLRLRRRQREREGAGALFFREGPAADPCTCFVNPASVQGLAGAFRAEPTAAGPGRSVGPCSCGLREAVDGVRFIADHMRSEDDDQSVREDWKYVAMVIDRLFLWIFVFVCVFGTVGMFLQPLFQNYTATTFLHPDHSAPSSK

Several values for one entry are separate records, joined by “and”; a condition that tells them apart may be missing. Equal entries are not always repeated.

As to `C[C@@H]1NC(=O)[C@@H]2CCCN2C(=O)[C@H](Cc2c[nH]cn2)NC(=O)[C@@H]2CSSC[C@@H](C(N)=O)NC(=O)[C@H](CO)NC(=O)[C@H](Cc3ccccc3)NC(=O)[C@H](Cc3c[nH]cn3)NC(=O)[C@H](CCCCN)NC(=O)CNC(=O)[C@H](CSSC[C@H](NC(=O)[C@H](CCCNC(=N)N)NC(=O)CNC(=O)[C@@H](N)CC(N)=O)C(=O)N2)NC1=O`, the IC50 – broadly, the concentration that gives 50% inhibition – is 2060 nM and 2000 nM.

The values are drawn from PMC6024821, “Synthesis, Structure and Biological Activity of CIA and CIB, Two α-Conotoxins from the Predation-Evoked Venom of Conus catus” (2018).
